The text below walks through data of patent publication US20160304570A1, “Potent and selective inhibitors of nav1.3 and nav1.7” (published 2016).

In the first test the target is human Nav1.7 (human), Q15858. The test can be described thus: cell-based or functional assay.
On to DCLGFMRKCKPDNDKCCRPNLVCSRTHKWCKYVF (modifications not checked) [[Lys10]GpTx-1(1-34)], for which the IWQ Use Nav1.7 (µM) [IC50, IonWorks Quattro electrophysiology] turned out to be 0.24 µM.

In turn, DCLGFMRKCFPDNDKCCRPNLVCSRTHKWCKYVF (modifications not checked) [[Phe10]GpTx-1(1-34)] had an IWQ Use Nav1.7 (µM) [IC50, IonWorks Quattro electrophysiology] of 0.11 µM.

For the molecule DCLGFMRKCYPDNDKCCRPNLVCSRTHKWCKYVF (modifications not checked) [[Tyr10]GpTx-1(1-34)], the IWQ Use Nav1.7 (µM) [IC50, IonWorks Quattro electrophysiology] is 0.14 µM.

Consider DCLGFMRKCNPDNDKCCRPNLVCSRTHKWCKYVF (modifications not checked) [[Asn10]GpTx-1(1-34)], for which the IWQ Use Nav1.7 (µM) [IC50, IonWorks Quattro electrophysiology] was determined as 0.49 µM.

As to DCLGFMRKCDPDNDKCCRPNLVCSRTHKWCKYVF (modifications not checked) [[Asp10]GpTx-1(1-34)], the IWQ Use Nav1.7 (µM) [IC50, IonWorks Quattro electrophysiology] was 0.22 µM.

Take DCLGFMRKCWPDNDKCCRPNLVCSRTHKWCKYVF (modifications not checked) [[Trp10]GpTx-1(1-34)]: the IWQ Use Nav1.7 (µM) [IC50, IonWorks Quattro electrophysiology] amounted to 0.1 µM.

The molecule DCLGFMRKCLPDNDKCCRPNLVCSRTHKWCKYVF (modifications not checked) [[Leu10]GpTx-1(1-34)] displayed an IWQ Use Nav1.7 (µM) [IC50, IonWorks Quattro electrophysiology] of 0.13 µM.

In the case of DCLGFMRKCTPDNDKCCRPNLVCSRTHKWCKYVF (modifications not checked) [[Thr10]GpTx-1(1-34)], the IWQ Use Nav1.7 (µM) [IC50, IonWorks Quattro electrophysiology] was found to be 0.1 µM.

Molecule DCLGFMRKCAPDNDKCCRPNLVCSRTHKWCKYVF (modifications not checked) [[Ala10]GpTx-1(1-34)] showed an IWQ Use Nav1.7 (µM) [IC50, IonWorks Quattro electrophysiology] of 0.21 µM.

In turn, DCLGFMRKCMPDNDKCCRPNLVCSRTHKWCKYVF (modifications not checked) [[Met10]GpTx-1(1-34)] had an IWQ Use Nav1.7 (µM) [IC50, IonWorks Quattro electrophysiology] of 0.09 µM.

The next test deals with human Nav1.7 voltage-gated sodium channel (human), Q15858. Kind of test: cell-based or functional assay.
The molecule DCLGFMRKCNPDNDKCCRPNLVCSRTHKWCKYVF (modifications not checked) [[Asn10]GpTx-1(1-34)] yielded a Nav1.7 Use IC50 (µM), PatchXpress electrophysiology of 0.002 µM.

As for DCLGFMRKCDPDNDKCCRPNLVCSRTHKWCKYVF (modifications not checked) [[Asp10]GpTx-1(1-34)], the Nav1.7 Use IC50 (µM), PatchXpress electrophysiology was determined as 0.003 µM.

The target of another test is human Nav1.5 (human), Q14524. Kind of test: cell-based or functional assay.
Molecule DCLGFMRKCKPDNDKCCRPNLVCSRTHKWCKYVF (modifications not checked) [[Lys10]GpTx-1(1-34)] came in with an IWQ Use Nav1.5 (µM) [IC50, IonWorks Quattro electrophysiology] of 9 µM.

DCLGFMRKCFPDNDKCCRPNLVCSRTHKWCKYVF (modifications not checked) [[Phe10]GpTx-1(1-34)]: the IWQ Use Nav1.5 (µM) [IC50, IonWorks Quattro electrophysiology] was determined as 5.33 µM.

Consider DCLGFMRKCYPDNDKCCRPNLVCSRTHKWCKYVF (modifications not checked) [[Tyr10]GpTx-1(1-34)], for which the IWQ Use Nav1.5 (µM) [IC50, IonWorks Quattro electrophysiology] is 5.41 µM.

In turn, DCLGFMRKCDPDNDKCCRPNLVCSRTHKWCKYVF (modifications not checked) [[Asp10]GpTx-1(1-34)] came in with an IWQ Use Nav1.5 (µM) [IC50, IonWorks Quattro electrophysiology] of 11.3 µM.

In the case of DCLGFMRKCWPDNDKCCRPNLVCSRTHKWCKYVF (modifications not checked) [[Trp10]GpTx-1(1-34)], the IWQ Use Nav1.5 (µM) [IC50, IonWorks Quattro electrophysiology] came to 8.02 µM.

In turn, DCLGFMRKCLPDNDKCCRPNLVCSRTHKWCKYVF (modifications not checked) [[Leu10]GpTx-1(1-34)] registered an IWQ Use Nav1.5 (µM) [IC50, IonWorks Quattro electrophysiology] of 8.13 µM.

With DCLGFMRKCTPDNDKCCRPNLVCSRTHKWCKYVF (modifications not checked) [[Thr10]GpTx-1(1-34)], the IWQ Use Nav1.5 (µM) [IC50, IonWorks Quattro electrophysiology] was greater than 5 µM.

Turning to DCLGFMRKCAPDNDKCCRPNLVCSRTHKWCKYVF (modifications not checked) [[Ala10]GpTx-1(1-34)], the IWQ Use Nav1.5 (µM) [IC50, IonWorks Quattro electrophysiology] was determined as 16.5 µM.

With DCLGFMRKCMPDNDKCCRPNLVCSRTHKWCKYVF (modifications not checked) [[Met10]GpTx-1(1-34)], the IWQ Use Nav1.5 (µM) [IC50, IonWorks Quattro electrophysiology] is 3.38 µM.

In another test the target is human Nav1.3 (human), Q9NY46. The test can be described thus: cell-based or functional assay.
In turn, DCLGFMRKCKPDNDKCCRPNLVCSRTHKWCKYVF (modifications not checked) [[Lys10]GpTx-1(1-34)] gave an IWQ Use Nav1.3 (µM) [IC50, IonWorks Quattro electrophysiology] of 0.15 µM.

Take DCLGFMRKCFPDNDKCCRPNLVCSRTHKWCKYVF (modifications not checked) [[Phe10]GpTx-1(1-34)]: the IWQ Use Nav1.3 (µM) [IC50, IonWorks Quattro electrophysiology] came to 0.08 µM.

For the molecule DCLGFMRKCYPDNDKCCRPNLVCSRTHKWCKYVF (modifications not checked) [[Tyr10]GpTx-1(1-34)], the IWQ Use Nav1.3 (µM) [IC50, IonWorks Quattro electrophysiology] was 0.07 µM.

DCLGFMRKCNPDNDKCCRPNLVCSRTHKWCKYVF (modifications not checked) [[Asn10]GpTx-1(1-34)]: the IWQ Use Nav1.3 (µM) [IC50, IonWorks Quattro electrophysiology] was found to be 0.19 µM.

For the molecule DCLGFMRKCDPDNDKCCRPNLVCSRTHKWCKYVF (modifications not checked) [[Asp10]GpTx-1(1-34)], the IWQ Use Nav1.3 (µM) [IC50, IonWorks Quattro electrophysiology] worked out at 0.16 µM.

As for DCLGFMRKCWPDNDKCCRPNLVCSRTHKWCKYVF (modifications not checked) [[Trp10]GpTx-1(1-34)], the IWQ Use Nav1.3 (µM) [IC50, IonWorks Quattro electrophysiology] worked out at 0.19 µM.

Take DCLGFMRKCLPDNDKCCRPNLVCSRTHKWCKYVF (modifications not checked) [[Leu10]GpTx-1(1-34)]: the IWQ Use Nav1.3 (µM) [IC50, IonWorks Quattro electrophysiology] stood at 0.08 µM.

In turn, DCLGFMRKCTPDNDKCCRPNLVCSRTHKWCKYVF (modifications not checked) [[Thr10]GpTx-1(1-34)] showed an IWQ Use Nav1.3 (µM) [IC50, IonWorks Quattro electrophysiology] of 0.06 µM.

Molecule DCLGFMRKCAPDNDKCCRPNLVCSRTHKWCKYVF (modifications not checked) [[Ala10]GpTx-1(1-34)] registered an IWQ Use Nav1.3 (µM) [IC50, IonWorks Quattro electrophysiology] of 0.19 µM.

For DCLGFMRKCMPDNDKCCRPNLVCSRTHKWCKYVF (modifications not checked) [[Met10]GpTx-1(1-34)], the IWQ Use Nav1.3 (µM) [IC50, IonWorks Quattro electrophysiology] turned out to be 0.1 µM.
